From patent US20180099015A1 (ADCURE BIOTECHNOLOGIES, published 2018)

The chains behind the UniProt entries cited, without tags or fusion partners. Residues count along the entry.
UniProt P78310, 20-237 limits assumed: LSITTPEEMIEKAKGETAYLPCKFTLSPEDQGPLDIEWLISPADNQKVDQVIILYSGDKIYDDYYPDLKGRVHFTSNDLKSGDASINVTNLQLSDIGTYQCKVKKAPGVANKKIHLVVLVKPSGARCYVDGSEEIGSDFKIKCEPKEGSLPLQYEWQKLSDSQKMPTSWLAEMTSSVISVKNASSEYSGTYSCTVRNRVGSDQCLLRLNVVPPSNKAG

Target: sCAR (UniProt P78310)
Test: not stated; row marked with an asterisk that has no footnote

Row | Substance | Kd
1 | Ad9 partner of the row Ad9-sCAR* | 6.4 µM
2 | Ad41L partner of the row Ad41L-sCAR* | 0.0073 µM
